The source of these data is paper PMC8550092.

Sequences of proteins named here, by UniProt entry; tags and fusion partners are left off. A change or cut given only in a name is not applied to a line headed by its entry.
UniProt Q5HN50: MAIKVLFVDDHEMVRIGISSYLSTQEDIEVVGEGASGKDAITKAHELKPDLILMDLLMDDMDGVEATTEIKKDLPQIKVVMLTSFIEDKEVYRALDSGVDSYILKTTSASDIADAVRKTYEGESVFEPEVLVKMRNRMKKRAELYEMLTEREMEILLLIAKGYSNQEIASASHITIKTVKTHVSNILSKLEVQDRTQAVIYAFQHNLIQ

Data set [1] concerns the target VraR-P (phosphorylated His-tagged VraR) (Staphylococcus epidermidis strain 1457 (SE1457)) (UniProt Q5HN50). Description: EMSA. Particulars: VraR-P 0.3-1.2 uM, Roche DIG gel shift kit (buffer, salt and pH not stated), 25 C, 20 min, 6% nondenaturing polyacrylamide gel, recombinant protein, residues 1-209, label: digoxigenin (terminal transferase), probe letters rebuilt from the primers and the genome. Background: Mobility shift assays separate free from complexed probe on a gel.

For data set [2] the target is unchanged. Description: competition with a labelled probe. Conditions: 125-fold excess vs labeled p-vra, 1.2 uM VraR-P, blocked complex; recombinant protein; residues 1-209; probe letters rebuilt from the primers and the genome.

For at least one entry, the source does not settle the construct or the ends of the probe.

As for “TGAAACTAAAGATAAAAGTTATGTCGCTCAAATTGAACACACGGTTATAGTTACAAAAGATGGTCCGTTACTTACAACTAAGATTGATGATTAATTAAATATTAGTAATTCAAATTAGAAATTAAGATTATGATTTACTTTTTTCATATCTCGTCAGACTAAAGTATGAAGCATATATGGTTCCGAAGCCTATTTCATTAGGTTTCGGAATTGTTTTATAATAAAGCTTAATCAGTGACGAGGTGATATCATTGAATATTTTAGATTTATATTTACAACAA (double strand) [p-vra]”, the binding result in data set [1] (dose-dependent) is listed as “binds”.

Regarding “ATTCTAAAATCTCCCCCTTATTCAATTTTCTAAAAATATATTACAGAAAAATTAAGTTAAAATTACAAATATTACTGTTTCAGTATAACAACATTCTATTGCAAATTGAAATACTTTCGATTAGCATATGCTTTACAACCTAACTAACGAAAGGTAGGTGAAAAAATGCA (double strand) [p-ica 2]”, the binding result in data set [1] is given as “binds”.

Consider “ATTCTAAAATCTCCCCCTTATTCAATTTTCTAAAAATATATTACAGAAAAATTAAGTTAAAATTACAAATATTACTGTTTCAGTATAACAAC (double strand) [p-ica 3]”, for which the binding result in data set [1] is reported as “binds”.

For the sequence “ATTCTAAAATCTCCCCCTTATTCAATTTTCTAAAAATATATTACAGAAAAATTAAGTTAAAATTACAAATATTACTGTTTCAGTATAACAACATTCTATTGCAAATTGAAATACTTTCGATTAGCATATGCTTTACAACCTAACTAACGAAAGGTAGGTGAAAAAATGCATGTATTTAACTTTTTACTTTTCTATCCAATTTTTATGTCAATTTACTGGATAGTAGGATCGATTTACTATTTTTTTATTAAAGAAAAACCCTTTAATCGATCATTGTTAGTAAAATCTGAACATCAACAAG (double strand) [p-ica 1]”, the binding result in data set [1] was “binds”.

As to “TGAAACTAAAGATAAAAGTTATGTCGCTCAAATTGAACACACGGTTATAGTTACAAAAGATGGTCCGTTACTTACAACTAAGATTGATGATTAATTAAATATTAGTAATTCAAATTAGAAATTAAGATTATGATTTACTTTTTTCATATCTCGTCAGACTAAAGTATGAAGCATATATGGTTCCGAAGCCTATTTCATTAGGTTTCGGAATTGTTTTATAATAAAGCTTAATCAGTGACGAGGTGATATCATTGAATATTTTAGATTTATATTTACAACAA (double strand) [p-vra unlabeled competitor]”, in data set [2], the binding result was “binds”.
